Pooled drug test results. Numbers come from NIAID ChemDB, via PubChem.

All rows: toxicity to cultured cells; measure: CC50

Lines come from different laboratories, so protocols vary. Blank or dashed fields: not listed here. CCn is the concentration with n% toxicity to the cells.

| SMILES | method | cells | value |
|---|---|---|---|
| OC[C@@H]1NC[C@H](O)[C@H]1O |  | Karpas 45 cells | >500 µg/mL |
| COc1cc([C@@H]2c3cc4c(cc3[C@H](OC(C)=O)[C@@H]3COC(=O)[C@@H]23)OCO4)cc2c1OC1(N3CCCC3)CCCCC1O2 |  | HT-29 | 2.02 µM |
| CC(=O)O[C@H]1C(=O)[C@@]2(C)[C@H]([C@H](OC(=O)c3ccccc3)[C@]3(O)C[C@H](OC(=O)[C@H](O)[C@@H](NC(=O)c4ccccc4)c4ccccc4)C(C)=C1C3(C)C)[C@]1(OC(C)=O)CO[C@@H]1C[C@@H]2O | MTT | MCF-7 | 0.0048 µg/mL |
| O=C(c1nn2c(C(F)(F)F)cc(C3CC3)cc2c1Cl)N1CCC2(CC1)OCCO2 | ATP | Huh7 | >50 µM |
| NC(=O)c1nn(Cc2ccccc2NC(=O)c2ccccc2)c2ccccc12 | MTT | Huh7.5.1 | >10 µM |
| Nc1nc(NC(c2ccccc2)c2ccccc2)c2ncn(CCOCP(=O)(O)O)c2n1 |  | P3HR-1 | 38 µg/mL |
| Cc1nnc(C(C)C)n1C1C[C@H]2CC[C@@H](C1)N2CC[C@H](NC(=O)C1CCC(F)(F)CC1)c1ccccc1 | MTS | PBMC (multiple donors) | >10 µM |
| COc1cccc(C(=O)Nc2cccc(Cn3nc(C(N)=O)c4ccccc43)c2)c1 | MTT | Huh7.5.1 | >10 µM |
| Nc1nc2c(ncn2COCCO)c(=O)[nH]1 |  | P3HR-1 | >100 µg/mL |
| CC1COC2(CCN(C(=O)c3nn4c(C(F)(F)F)cc(C5CC5)cc4c3Cl)CC2)OC1 | ATP | Huh7 | >50 µM |
| O=C(O)[C@H]1NCC[C@@H](O)[C@@H]1O |  | Karpas 45 cells | >180 µg/mL |
| Cc1cc(NS(=O)(=O)c2ccc(N3C(=O)CSC3c3ccc(C(F)(F)F)cc3)cc2)no1 | MTT | HCT116 | >100 µg/mL |
| NC(=O)c1nn(Cc2cccc(NC(=O)C3CC3)c2)c2ccccc12 | MTT | Huh7.5.1 | >10 µM |
| CC1=CCC(C(C)C2=CC[C@]3(C)C(=C2C)C[C@]2(O)C=C4C=CC(=O)OC(C)(C)C4[C@H](O)CC23)OC1=O | MTT | BEL-7402 | 23.55 µM |
| COc1cc([C@@H]2c3cc4c(cc3[C@H](OC(C)=O)[C@@H]3COC(=O)[C@H]23)OCO4)cc2c1OCO2 |  | MEL-28 | 2.27 µM |
| CN1C[C@@H](O)[C@@H](O)[C@H]1[C@@H](O)CO |  | Karpas 45 cells | >300 µg/mL |
| O=C(O)c1cc(O)cc(O)c1N=Nc1ccc(/C=C/c2ccc(N=Nc3c(O)cc(O)cc3C(=O)O)cc2S(=O)(=O)O)c(S(=O)(=O)O)c1 |  | Macrophage | 160 µg/mL |
| O[C@H]1[C@H](O)[C@@H](O)CN2CC[C@H](O)[C@H]12 |  | Karpas 45 cells | >400 µg/mL |
| COc1cc([C@@H]2c3cc4c(cc3[C@H](OC(C)=O)[C@@H]3COC(=O)[C@@H]23)OCO4)cc2nc3cc(C)c(C)cc3nc12 |  | MEL-28 | 4.8 µM |
| NC(=NC1CCCC1)c1ccc(-c2ccc(-c3ccc(C(N)=NC4CCCC4)cc3)o2)cc1 |  | A2780 ovarian carcinoma | 12 µM |
| COc1ccc(C(=O)Nc2cccc(Cn3nc(C(N)=O)c4ccccc43)c2)cc1 | MTT | Huh7.5.1 | >10 µM |
| OC[C@@H](O)[C@H]1NC[C@H](O)[C@@H]1O |  | Karpas 45 cells | >160 µg/mL |
| CC1(C)CC[C@]2(C(=O)O)CC[C@]3(C)C(=CC[C@@H]4[C@@]5(C)CC[C@H](O)C(C)(C)[C@@H]5CC[C@]43C)[C@@H]2C1 | MTT | 9-13 cells | 78.6 µg/mL |
| Cc1cn([C@H]2C[C@H](N=[N+]=[N-])[C@@H](CO)O2)c(=O)[nH]c1=O |  | C3H | >200 µM |
| C=C1C(C(C)C2CC=C(C)C(=O)O2)=CC[C@]2(C)C1C[C@]1(O)C=C3C=CC(=O)OC(C)(C)C3CCC21 | MTT | BEL-7402 | 1.05 µM |
| Cc1cccc(C(=O)Nc2cccc(Cn3nc(C(N)=O)c4ccccc43)c2)c1 | MTT | Huh7.5.1 | >10 µM |
| O=C(c1nn2c(C(F)(F)F)cc(C3CC3)cc2c1Cl)N1CCC2(CC1)OCCCCO2 | ATP | Huh7 | >25 µM |
| Nc1ccn(C[C@@H](CO)OCP(=O)(O)O)c(=O)n1 |  | TR-14 | >200 µg/mL |
| C[C@H]1[C@H](C)CC[C@]2(C(=O)O)CC[C@]3(C)C(=CC[C@@H]4[C@@]5(C)CC[C@H](O)C(C)(C)[C@@H]5CC[C@]43C)[C@H]12 | MTT | Huh7.5.1 | >200 µg/mL |
| CC(=O)N[C@H]1CN[C@H](CO)[C@H](O)[C@@H]1O |  | Karpas 45 cells | >190 µg/mL |
| NC(=O)c1nn(Cc2ccc(N)cc2)c2ccccc12 | MTT | Huh7.5.1 | >10 µM |
| Cc1cn([C@H]2C[C@H]([N+](=O)[O-])[C@@H](CO)O2)c(=O)[nH]c1=O |  | P3HR-1 | >100 µg/mL |
| OC[C@H]1NC[C@H](O)[C@@H](O)[C@@H]1O |  | Karpas 45 cells | >500 µg/mL |
| Nc1nccc2c1ncn2[C@@H]1O[C@H](CO)[C@@H](O)[C@H]1O |  | PRK | >400 µg/mL |
| C=CCNc1ncnc2c1ncn2C[C@@H](C)OCP(=O)(O)O |  | P3HR-1 | 22 µg/mL |
| CC1=CCC(C(C)C2=C(C)C3C[C@]4(O)C=C5C=CC(=O)OC(C)(C)C5[C@H](O)CC4[C@]3(C)C=C2)OC1=O | MTT | BEL-7402 | 16.98 µM |
| C[C@H](Cn1cnc2ncnc(N(C)C)c21)OCP(=O)(O)O |  | P3HR-1 | 45 µg/mL |
| Nc1ncnc2c1ncn2C[C@@H](CO)OCP(=O)(O)O |  | U373-MG | 34 µg/mL |
| COC1=CC([C@@H]2c3cc4c(cc3[C@H](OC(C)=O)[C@@H]3COC(=O)[C@H]32)OCO4)=CC(=O)C1=O |  | P-388 | 0.59 µM |
| CC[C@H]1C[C@]1(NC(=O)[C@@H]1C[C@@H]2CN1C(=O)[C@H](C(C)(C)C)NC(=O)OCC(C)(C)CCCCc1cccc3c1CN(C3)C(=O)O2)C(=O)NS(=O)(=O)C1CC1 | MTT | Huh7.5.1 | 81.4 µg/mL |
| Cc1cc(NS(=O)(=O)c2ccc(N3C(=O)CSC3c3c(F)cccc3F)cc2)no1 | MTT | HCT116 | >100 µg/mL |
| COC(=O)[C@@H]1[C@H](c2cc(OC)c3nc4cc(Cl)c(Cl)cc4nc3c2)c2cc3c(cc2C2=NOC[C@@H]21)OCO3 |  | P-388 | >18 µM |

4 of the rows above, restated:

SMILES	method	cells	value
Cc1cc(NS(=O)(=O)c2ccc(N3C(=O)CSC3c3ccc(C(F)(F)F)cc3)cc2)no1	MTT	HCT116	>100 µg/mL
C=C1C(C(C)C2CC=C(C)C(=O)O2)=CC[C@]2(C)C1C[C@]1(O)C=C3C=CC(=O)OC(C)(C)C3CCC21	MTT	BEL-7402	1.05 µM
COc1cc([C@@H]2c3cc4c(cc3[C@H](OC(C)=O)[C@@H]3COC(=O)[C@@H]23)OCO4)cc2c1OC1(N3CCCC3)CCCCC1O2		HT-29	2.02 µM
NC(=O)c1nn(Cc2cccc(NC(=O)C3CC3)c2)c2ccccc12	MTT	Huh7.5.1	>10 µM